“And” between values parts separate entries of the source, which are not always exact repeats. Identical values can stand only once.
Tests used:
[1] = previous work; cited from earlier work
[2] = Isothermal titration calorimetry, POPC; assay type: binding; settings: for ΔH, POPC: titrated POPC vesicle
[3] = Isothermal titration calorimetry, POPG; assay type: binding; settings: for ΔH, POPG: titrated POPG vesicle; for Free energy of binding ΔG, POPG: ΔG=RT ln Kd

GL5RL5G: polyleucine-based peptide of the acetyl-GLnRLnG-amide family, n=5 (SEQ ID NO: 28) (GLLLLLRLLLLLG; N-terminal acetyl, C-terminal amide)
Transmembrane (TM) inserted fraction, pTM [1]: 7±2% and 7%

GL6RL6G: polyleucine-based peptide of the acetyl-GLnRLnG-amide family, n=6 (SEQ ID NO: 29) (GLLLLLLRLLLLLLG; N-terminal acetyl, C-terminal amide)
Transmembrane (TM) inserted fraction, pTM [1]: 35±8% and 35%

GLLDDAKLLAKLAGW-AMIDE [Peptide 7D12]
ΔH, POPC [2]: 0.1 kcal/mol | Stoichiometry N, POPG [3]: 11 lipids per peptide and 12 lipids per peptide | ΔS, POPG [3]: 7.9 cal/mol K | ΔH, POPG [3]: -3.4 kcal/mol | Free energy of binding ΔG, POPG [3]: ~5.7 kcal/mol

H-GLDDLAKLLLKLAGW-NH2 [Peptide 25B2]
Stoichiometry N, POPC [2]: 5 lipids per peptide | ΔS, POPC [2]: 2.8-3.6 cal/mol K | ΔH, POPC [2]: -4.7 kcal/mol | Free energy of binding ΔG, POPC ([2]; ΔG=RT ln Kd): ~5.7 kcal/mol | Stoichiometry N, POPG [3]: 5 lipids per peptide | ΔS, POPG [3]: 2.8-3.6 cal/mol K | ΔΔH between POPC and POPG [3]: -0.21 kcal/mol | ΔH, POPG [3]: -4.9 kcal/mol | Free energy of binding ΔG, POPG [3]: ~5.7 kcal/mol
